Measured values: the supplement of paper PMC9931576
Human monoclonal antibodies against the spike receptor-binding domain (heavy:light variable regions). IC50 against pseudoviruses bearing the spike of naturally observed variants; lower = stronger; >10 µg/ml means not reached at the top dose. No active / inactive call. The stated detection limit is 0.0005 µg/ml; values near or below 0.001 µg/ml lie at the floor of the assay.

B1: BD55-3327 (protein)
chain 1: QVQLVESGGGVVQPGRSLRLSCAASGFTFSSYGMFWVRQAPGKGLEWVATVWFDGSSEYYADSVKGRFTISRDNSKKTLYLQMSSLRVEDTAVYYCARERTYYYGAQGGEFGGLDVWGHGTTVTVSS
chain 2: EIVLTQSPGTLSLSPGERATLSCRASQSVSSSYLAWYQQKPGQAPRLLIYDASSRATGIPDRFSGSGSGTDFTLTISRLEPEDFAVYYCQQYSSSWTFGQGTKVEIK
B2: BD55-3370 (protein)
chain 1: QVQLQESGPGLVKPSETLSLTCTVSGGSMTIYHWSWIRQPPGKALEWIGYIFYTGDTNYNPSLKSRVTMSVDTSKNQFSLGLSSVTAADTAVYYCARGSSGWYKGGSYLYFMDVWGQGTTVTVSS
chain 2: DIQMTQSPSTLSASVGDRVTITCRASQTISAWLAWYQQKPGKAPKLLIYGASSLESGVPSRFSGSGSGTEFTLTISSLQSDDFATYYCQQYDTSPLTFGGGTKVEIK
B3: BD-500 (protein)
chain 1: EVQLVESGGGLIQPGGSLRLSCAASGLTVSSNYMTWVRQAPGKGLEWVSVIYSGGSTFYADSVKGRFTISRHNSKNTLYLQMNSLRAEDTAVYYCARDAMSYGMDVWGQGTTVTVSS
chain 2: DIQMTQSPSSLSASVGDRVTITCRASQSISNFLNWYQQKPGKAPKLLIYAASSLQSGVPSRFSGSGSGTGFTLTISSLQPEDFATYYCQQSYSTPPDTFGQGTRLEIK
B4: BD55-3440 (protein)
chain 1: QVQLVQSGAEVKKPGSSVKVSCKASGDTFSSFAINWVRQAPGQGLEWIGRITPVLNIPHYAQRFQGRVTITADKSTSTAYMELSSLRSDDTAVYYCARVVLSKYQPPRGYYYYAMDVWGQGTTVTVSS
chain 2: SYELTQPPSVSVSPGQTATITCSGDALPKEYAYWYQKKPGQAPVLVMSKDSERPSGIPERFSGSSSGTTVTLTISGVQAEDEADYYCQSADIGGPSVIFAGGTKLTVL
B5: BD55-3457 (protein)
chain 1: QVQLVQSGSELKKPGASVKVSCKASGYTFTSSAVHWVRQARGQGLEWMGWINTDTATPTYAQAFTGRFLFSLDTSVSTAYLQISSLKAEDTAVYYCARDRDLYERAFDVWGQGTRVNVSS
chain 2: EIVMTQSPATLSVSPGERAILSCRASQSVGSNFAWYQQKPGQAPRLLIFGASTRATGIPVRFSGSGSGTEFTLTISSLQSEDFAVYYCQQYNYWPLTFGGGTKVEIK
B6: BD55-3484 (protein)
chain 1: EVRLAESGGGLVKPGGSLRLSCAASGFSFSDAWMSWVRQAPGKGLEWVGHIKSEISGGTTDYAVPVKGRFTISRDDSKNTLYLQMNSLKTEDTAMYYCVSSDIWRFYDSGMDVWGHGTTVTVSS
chain 2: DIQMTQSPSTLSASVGDRVTITCRASQSISIWLAWYQQKAGKAPKLLVYKASRLESGVPSRFSGSGSGTEFTLTISSLQPDDFAIYYCQQYDSYPLTFGGGTKVQIK
B7: BD55-3525 (protein)
chain 1: EVQVVESGGGLVKPGGSLRLSCAGSGFTFNYAWMNWVRQAPGKGLEWVGRIKSETGGGTTDYAAPVRGRFTISRDDSKDTVFLQMNSLKTEDTAVYYCTTEATVTSWDAFDVWGQGTLVTVST
chain 2: QSVLTQPPSASGTSGQRVTISCSGSSSNIGSNTVNWYQQIPRRAPKLLIYRNNQRPSGVPDRFSASKSGTSASLAISGLHSEDEADYYCAAWDDRLNGFVFGTGTKVTVL
B8: BD55-3546 (protein)
chain 1: QVQLVQSGSALKRPGASVKLSCKASGYTFINYAIHWVRQAPGQGLQWMGWINPNTGIPTYAQGFTGRFVFSLDTSVSTAYLQLSSLKIEDTAVYYCARDQDLYERAFDIWGQGTMVTVSS
chain 2: DVVLTQSPATLSVSPGERATLSCRASHNVGTSLAWYQQKPGQAPRLLIHGVSTRATGVPARFSDSGSGTEFTLTISSLQSEDLAVYYCQQYNYWPLTFGGGTKVEIK
B9: BD55-3597 (protein)
chain 1: QVQLVESGGGVVQPGRSLRFSCAASGFTFSSYGMHWVRQAPGKGLEWVAVTSYDGKNKYYADSVKGRFTISRDNSKNTVYLQMNSLRAEDTAVYYCAKGSGSGWYEIFQFSMDVWGKGTTVTVSS
chain 2: QSVLTQPPSVSGAPGQKVTISCTGSSSNIGSGYDVHWYQQLPGAAPKLLIHGNSNRPSGVPDRFSGSKSGTSASLAITGLQAEDEADYYCQSYDSTLSLWVFGGGTKLTVL
B10: BD55-3611 (protein)
chain 1: EVQLVQSGAEVKKPGESLKISCKGSGYMFKSYWIGWVRQMPGKGLEWMGLIYPDDSDTKYSPSFQGHVTISADKSISTAYLQWSSLKASDTAMYYCASVNNYYFGYFDLWGPGTPVTVSS
chain 2: DVQMTQSPSSLSASVGDRVTITCRASQGIRSDVGWYQQKPGKPPKRLIYAASSLENGVPSRFSGSGSGTAFTLTISSLQPEDFATYYCLQQSTYPPTFGQGTKLEIK
B11: BD55-3741 (protein)
chain 1: VQVVQSGAEVKKPGESLKISCKVSGYSFSIYWIAWVRQMSGKGLEWMGIIYPGDSDTRYSPSFQGQVTISADKSISTAYLQWSSLKASDTAKYYCAAVGGINAAFDIWGRGTMVTVSS
chain 2: DIVMTQSPDSLAVSLGERATINCKSSQSVLHRSSNKNFVAWYQHKPGQPPALLFYWASTRETGVPDRFSGSGSGTDFTLTISSLQAEDVAVYYCQQYYTTPYTFGQGTKLEIK
B12: BD55-3832 (protein)
chain 1: QVQLVQSGAEVKKPGASVKVSCKASGYTFTRFYMHWVRQAPGQGLEWMGIIDPSGGSTTYAQKFQGRVTMTRDTSTSTVYMELSSLRSEDTAVYYCARDYYDSSGYYRFDPWGQGTLVTVSS
chain 2: DIQMTQSPSSLSASVGDRVTIACRASQSISSYLNWYQQKPGKAPKLLIYAASTLQSGVPSRFSGSGSGTDFTLTISTLQPDDFATYYCQQSYSYPRGTFGQGTKVAIK

Assays:
Assay in all cases: pseudovirus neutralization IC50; higher = weaker neutralization
[1] = target: SARS-CoV-2 Omicron BA.1 spike pseudovirus
Description: (§1)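 Single-round VSV luciferase pseudovirus mixed with antibody dilutions for 1 h and put on Huh-7 cells for about a day; IC50 from the dose curve.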

[2] = target: SARS-CoV-2 Omicron BA.2 spike pseudovirus
Description: as §1

[3] = target: SARS-CoV-2 Omicron BA.2.75 spike pseudovirus
Description: as §1

[4] = target: SARS-CoV-2 Omicron BA.5 spike pseudovirus
Description: as §1

[5] = target: SARS-CoV-2 Omicron BQ.1.1 spike pseudovirus
Description: as §1

[6] = target: SARS-CoV-2 Omicron XBB spike pseudovirus
Description: as §1

[7] = target: SARS-CoV-2 early D614G spike pseudovirus
Description: as §1

Binder	pseudovirus neutralization IC50 [1]	pseudovirus neutralization IC50 [2]	pseudovirus neutralization IC50 [3]	pseudovirus neutralization IC50 [4]	pseudovirus neutralization IC50 [5]	pseudovirus neutralization IC50 [6]	pseudovirus neutralization IC50 [7]
B1	9.48 µg/mL	8.53 µg/mL	8.27 µg/mL	4.3 µg/mL	3.05 µg/mL	3.21 µg/mL	7.31 µg/mL
B2	6.39 µg/mL	7.52 µg/mL	4.52 µg/mL	> 10 µg/mL	> 10 µg/mL	> 10 µg/mL	8.55 µg/mL
B3	> 10 µg/mL	> 10 µg/mL	> 10 µg/mL	> 10 µg/mL	> 10 µg/mL	> 10 µg/mL	0.0754 µg/mL
B4	> 10 µg/mL	5.04 µg/mL	> 10 µg/mL	6.9 µg/mL	> 10 µg/mL	> 10 µg/mL	0.154 µg/mL
B5	3.19 µg/mL	> 10 µg/mL	> 10 µg/mL	5.54 µg/mL	> 10 µg/mL	> 10 µg/mL	1.8 µg/mL
B6	2.31 µg/mL	2.7 µg/mL	2.82 µg/mL	2.79 µg/mL	> 10 µg/mL	> 10 µg/mL	8.28 µg/mL
B7	5.44 µg/mL	6.97 µg/mL	4.48 µg/mL	> 10 µg/mL	> 10 µg/mL	> 10 µg/mL	1.56 µg/mL
B8	0.0058 µg/mL	0.0359 µg/mL	3.06 µg/mL	0.0958 µg/mL	> 10 µg/mL	> 10 µg/mL	0.00113 µg/mL
B9	2.45 µg/mL	1.96 µg/mL	4.32 µg/mL	3.15 µg/mL	3.57 µg/mL	4.95 µg/mL	1.06 µg/mL
B10	3.65 µg/mL	3.02 µg/mL	3.92 µg/mL	3.55 µg/mL	2.39 µg/mL	3.57 µg/mL	3.04 µg/mL
B11	> 10 µg/mL	> 10 µg/mL	> 10 µg/mL	> 10 µg/mL	> 10 µg/mL	> 10 µg/mL	> 10 µg/mL
B12	> 10 µg/mL	> 10 µg/mL	> 10 µg/mL	> 10 µg/mL	> 10 µg/mL	> 10 µg/mL	5.73 µg/mL
